Results of unrelated studies side by side (data: NIAID ChemDB).

Shared fields: growth or infection tests; agent: Herpes simplex virus 1; measure: EC50

Blank or dashed fields: not listed here.

{"SMILES": "O=c1[nH]c(=S)n([C@@H]2O[C@H](CO)[C@@H](O)[C@@H]2O)cc1Cl", "strain": "KOS", "cells": "RPMI8226", "read by": "plaque count", "value": "13.9 µM"}
{"SMILES": "O=c1ccc2cc(O[C@@H]3O[C@H](CO)[C@@H](O)[C@H](O)[C@H]3O)c(O)cc2o1", "strain": "KOS", "cells": "HeLa", "read by": "cytopathic effect", "value": ">200 µg/mL"}
{"SMILES": "COc1ccc(Cn2c(O)c(N=O)c(=O)[nH]c2=O)cc1", "strain": "Leningrad/248/88", "cells": "VERO", "read by": "cytopathic effect", "value": ">100 µg/mL"}
{"SMILES": "Cc1cn([C@@H]2O[C@H](CO)[C@@H](O)[C@@H]2O)c(=S)[nH]c1=O", "strain": "TK-", "cells": "MRC-5", "read by": "plaque count", "value": ">365 µM"}
{"SMILES": "CC(C)(C)n1c(O)c(N=O)c(=O)[nH]c1=O", "strain": "Leningrad/248/88", "cells": "VERO", "read by": "cytopathic effect", "value": "100 µg/mL"}
{"SMILES": "C[C@@]1(CO)[C@H](O)CC[C@@]2(C)[C@H]1CC[C@H]1C[C@@H]3CC12CC1O[C@]13C", "cells": "VERO", "read by": "plaque count", "value": ">500 µM"}
{"SMILES": "CO[C@@H]1[C@@H](O[C@@H]2O[C@H](C)[C@@H](O[C@H]3C[C@@](C)(O)[C@@H](O)[C@H](C)O3)[C@H](N(C)C)[C@H]2O)[C@@H](CC=O)C[C@@H](C)[C@@H](O)/C=C/C=C/C[C@@H](C)OC(=O)C[C@H]1O", "strain": "KOS", "cells": "HeLa", "read by": "cytopathic effect", "value": ">200 µg/mL"}
{"SMILES": "Nc1nccc2c1ncn2[C@@H]1C[C@H](CO)[C@@H](O)[C@H]1O", "cells": "PRK", "read by": "cytopathic effect", "value": "200 µg/mL"}
{"SMILES": "O=c1[nH]c(=O)n([C@H]2C[C@H](O)[C@@H](CO)S2)cc1C1CCC1", "strain": "KOS McIntyre F", "cells": "E6SM", "read by": "cytopathic effect", "value": "2.8 µM"}
{"SMILES": "C=C1CCC23C[C@H]1C[C@@H]2CC[C@H]1[C@](C)(CO)[C@H](O)CC[C@@]13C", "read by": "plaque count", "value": ">500 µM"}
{"SMILES": "C=C[C@H]1CN2CC[C@H]1C[C@H]2[C@H](O)c1ccnc2ccccc12", "strain": "KOS", "cells": "HeLa", "read by": "cytopathic effect", "value": ">200 µg/mL"}
{"SMILES": "O=C(O)Cc1ccc(O)c(O)c1", "strain": "KOS", "cells": "E6SM", "read by": "cytopathic effect", "value": "15 µg/mL"}
{"SMILES": "COC(=O)[C@H]1[C@H]2C[C@@H]3c4[nH]c5cc(OC)ccc5c4CCN3C[C@H]2C[C@@H](OC(=O)c2cc(OC)c(OC)c(OC)c2)[C@@H]1OC", "strain": "KOS", "cells": "HeLa", "read by": "cytopathic effect", "value": ">200 µg/mL"}
{"SMILES": "O=C(O)Cc1cc(O)ccc1O", "strain": "KOS", "cells": "E6SM", "read by": "cytopathic effect", "value": "7 µg/mL"}
{"SMILES": "CC1(C)OC[C@]2(C)[C@@H](CC[C@@]3(C)[C@H]2CC[C@H]2C[C@@H]4CC23CC[C@]4(O)CO)O1", "cells": "VERO", "read by": "plaque count", "value": ">500 µM"}
{"SMILES": "Nc1nc(=S)n([C@H]2C[C@H](O)[C@@H](CO)O2)cc1I", "strain": "TK-", "cells": "MRC-5", "read by": "plaque count", "value": ">272 µM"}
{"SMILES": "CC[C@H]1OC(=O)[C@H](C)[C@@H](O[C@H]2C[C@@](C)(OC)[C@@H](O)[C@H](C)O2)[C@H](C)[C@@H](O[C@@H]2O[C@H](C)C[C@H](N(C)C)[C@H]2O)[C@@H](C)C[C@@H](C)C(=O)[C@H](C)[C@@H](O)[C@H]1C", "strain": "KOS", "cells": "HeLa", "read by": "cytopathic effect", "value": ">200 µg/mL"}
{"SMILES": "O=c1[nH]c(=S)n([C@H]2C[C@H](O)[C@@H](CO)O2)cc1F", "strain": "TK-", "cells": "MRC-5", "read by": "plaque count", "value": ">383 µM"}
{"SMILES": "CC1(C)CCC[C@@]2(C)[C@H]1CC[C@H]1C[C@@H]3CC12CCC3=O", "cells": "VERO", "read by": "plaque count", "value": ">500 µM"}
{"SMILES": "O=c1[nH]c(=S)n([C@@H]2O[C@H](CO)[C@@H](O)[C@@H]2O)cc1I", "strain": "KOS", "cells": "MRC-5", "read by": "plaque count", "value": "51.8 µM"}
{"SMILES": "O=c1ccn([C@H]2C[C@H](O)[C@@H](CO)O2)c(=O)[nH]1", "strain": "KOS McIntyre F", "cells": "E6SM", "read by": "cytopathic effect", "value": ">2000 µM"}
{"SMILES": "C[C@@]12COCO[C@@H]1CC[C@@]1(C)[C@H]2CC[C@H]2C[C@@H]3CC21CCC31COCO1", "cells": "VERO", "read by": "plaque count", "value": ">500 µM"}
{"SMILES": "O=c1ccn([C@@H]2[Se][C@H](CCO)[C@@H](O)[C@H]2O)c(=O)[nH]1", "cells": "VERO", "read by": "MTT", "value": "2.3 µM"}
{"SMILES": "O=C(O[C@@H]1Cc2c(O)cc(O)cc2O[C@@H]1c1cc(O)c(O)c(O)c1)c1cc(O)c(O)c(O)c1", "cells": "VERO", "value": "0.1 µM"}
{"SMILES": "Cc1cn([C@H]2C[C@H](O)[C@@H](CO)S2)c(=O)[nH]c1=O", "strain": "KOS McIntyre F", "cells": "E6SM", "read by": "cytopathic effect", "value": "0.013 µM"}
{"SMILES": "O=c1[nH]c(=O)n([C@H]2C[C@H](O)[C@@H](CO)O2)cc1F", "strain": "KOS", "cells": "MRC-5", "read by": "plaque count", "value": "259 µM"}
{"SMILES": "O=c1[nH]c(=O)n([C@H]2C[C@H](O)[C@@H](CO)O2)cc1C1CCCCC1", "strain": "KOS McIntyre F", "cells": "E6SM", "read by": "cytopathic effect", "value": ">1200 µM"}
{"SMILES": "Oc1cccc(O)c1O", "strain": "B2006 (TK-)", "cells": "E6SM", "read by": "cytopathic effect", "value": "15 µg/mL"}
{"SMILES": "O=c1[nH]c(=S)n([C@@H]2O[C@H](CO)[C@@H](O)[C@@H]2O)cc1Br", "strain": "TK-", "cells": "MRC-5", "read by": "plaque count", "value": ">295 µM"}
{"SMILES": "Cc1c(CC(=O)O)ccc(O)c1O", "strain": "KOS", "cells": "E6SM", "read by": "cytopathic effect", "value": "40 µg/mL"}
{"SMILES": "N[C@H]1[C@H](O)[C@@H](O)[C@@H](O[C@H]2O[C@H](CO)[C@@H](O)[C@H](O)[C@H]2O)O[C@@H]1CO", "strain": "KOS", "cells": "HeLa", "read by": "cytopathic effect", "value": ">400 µg/mL"}
{"SMILES": "Nc1ncnc2c1ncn2[C@@H]1[Se][C@H](CCO)[C@@H](O)[C@H]1O", "cells": "VERO", "read by": "MTT", "value": "2.9 µM"}
{"SMILES": "Nc1ncnc2c1ncn2C[C@H](O)CO", "cells": "PRK", "read by": "cytopathic effect", "value": ">400 µg/mL"}
{"SMILES": "CCCc1cn([C@H]2C[C@H](O)[C@@H](CO)S2)c(=O)[nH]c1=O", "strain": "KOS McIntyre F", "cells": "E6SM", "read by": "cytopathic effect", "value": "0.06 µM"}
{"SMILES": "CC(=O)[C@]1(O)Cc2c(O)c3c(c(O)c2[C@@H](O[C@H]2C[C@H](N)[C@H](O)[C@H](C)O2)C1)C(=O)c1c(O)cccc1C3=O", "strain": "KOS", "cells": "HeLa", "read by": "cytopathic effect", "value": ">200 µg/mL"}
{"SMILES": "CC(=O)OC[C@@]1(O)CCC23C[C@H]1C[C@@H]2CC[C@@H]1[C@]3(C)CCC(=O)[C@@]1(C)COS(=O)(=O)c1ccc(C)cc1", "cells": "VERO", "read by": "plaque count", "value": ">500 µM"}
{"SMILES": "CCC(=O)O[C@@H]1CC(=O)O[C@H](C)C/C=C/C=C/[C@H](O)[C@H](C)C[C@H](CC=O)[C@H](O[C@@H]2O[C@H](C)[C@@H](O[C@H]3C[C@@](C)(O)[C@@H](OC(=O)CC(C)C)[C@H](C)O3)[C@H](N(C)C)[C@H]2O)[C@H]1OC", "strain": "KOS", "cells": "HeLa", "read by": "cytopathic effect", "value": ">200 µg/mL"}
{"SMILES": "O=Nc1c(O)n(Cc2ccccc2)c(=O)[nH]c1=O", "strain": "Leningrad/248/88", "cells": "VERO", "read by": "cytopathic effect", "value": ">100 µg/mL"}
{"SMILES": "O=c1[nH]c(=O)n([C@H]2C[C@H](O)[C@@H](CO)S2)cc1C1CC1", "strain": "KOS McIntyre F", "cells": "E6SM", "read by": "cytopathic effect", "value": "0.17 µM"}
{"SMILES": "O=c1ccn([C@H]2C[C@H](O)[C@@H](CO)O2)c(=S)[nH]1", "strain": "KOS", "cells": "RPMI8226", "read by": "plaque count", "value": "8.6 µM"}
{"SMILES": "Cc1cn([C@H]2C[C@H](O)[C@@H](CO)O2)c(=O)[nH]c1=O", "strain": "KOS McIntyre F", "cells": "E6SM", "read by": "cytopathic effect", "value": ">2000 µM"}
{"SMILES": "C[C@@H]1CC[C@@]2(OC1)O[C@H]1[C@@H](O)[C@H]3[C@@H]4CC[C@H]5C[C@@H](O[C@@H]6O[C@H](CO)[C@H](O[C@@H]7O[C@H](CO)[C@@H](O)[C@H](O[C@@H]8OC[C@@H](O)[C@H](O)[C@H]8O)[C@H]7O[C@@H]7O[C@H](CO)[C@H](O)[C@H](O[C@@H]8O[C@H](CO)[C@@H](O)[C@H](O)[C@H]8O)[C@H]7O)[C@H](O)[C@H]6O)[C@H](O)C[C@]5(C)[C@H]4CC[C@]3(C)[C@H]1[C@@H]2C", "strain": "KOS", "cells": "HeLa", "read by": "cytopathic effect", "value": ">2 µg/mL"}
{"SMILES": "C[C@@]1(CO)[C@H](O)CC[C@@]2(C)[C@H]1CC[C@H]1C[C@@H]3C[C@@]12CC[C@@]3(C)O", "cells": "VERO", "read by": "plaque count", "value": ">500 µM"}

The first 6 rows once more:

SMILES	strain	cells	read by	value
O=c1[nH]c(=S)n([C@@H]2O[C@H](CO)[C@@H](O)[C@@H]2O)cc1Cl	KOS	RPMI8226	plaque count	13.9 µM
O=c1ccc2cc(O[C@@H]3O[C@H](CO)[C@@H](O)[C@H](O)[C@H]3O)c(O)cc2o1	KOS	HeLa	cytopathic effect	>200 µg/mL
COc1ccc(Cn2c(O)c(N=O)c(=O)[nH]c2=O)cc1	Leningrad/248/88	VERO	cytopathic effect	>100 µg/mL
Cc1cn([C@@H]2O[C@H](CO)[C@@H](O)[C@@H]2O)c(=S)[nH]c1=O	TK-	MRC-5	plaque count	>365 µM
CC(C)(C)n1c(O)c(N=O)c(=O)[nH]c1=O	Leningrad/248/88	VERO	cytopathic effect	100 µg/mL
C[C@@]1(CO)[C@H](O)CC[C@@]2(C)[C@H]1CC[C@H]1C[C@@H]3CC12CC1O[C@]13C		VERO	plaque count	>500 µM

ECn: concentration that inhibits the pathogen or its effect by n%. Rows are shuffled and stem from different studies.